The target in the assay is 2019-nCoV S prefusion-stabilized ectodomain (residues 1-1208, two proline substitutions, GSAS at the (2019-nCoV | bacteriophage T4)). Description: SPR. A general note: In SPR one partner is held on a chip, and binding of the other changes the refractive index at the surface.

Where “and” joins values, the source holds several entries; their conditions need not be identical. Equal entries are not always repeated.

The values below come from publication doi:10.1101/2020.02.11.944462.

As to “human angiotensin-converting enzyme 2 (ACE2), residues 1-615, untagged (from UniProt Q9BYF1 18-615) (receptor)”, the fold higher affinity than ACE2 binding to SARS-CoV S is 10 fold and 20 fold.
